Measurements taken from PMC6356680, “Clerodane Diterpenes from the Marine Sponge Raspailia bouryesnaultae Collected in South Brazil” (Marine Drugs, 2019).

What was measured:
HSV-1 (KOS strain) = assay: Viral plaque number reduction assay, HSV-1 KOS strain; assay type: cell-based, Herpes Simplex Virus type 1; conditions: selective index = CC50 (Vero)/IC50
Experimental: (§1) Firstly, the cytotoxicity of compounds 1–6 was determined by SRB assay as described above. HSV-1 (KOS and 29R strains, which are sensitive and resistant to acyclovir, respectively, Faculty of Pharmacy, University of Rennes I, Rennes, France) were propagated in the permissive Vero cells. Viral stocks were titrated as based on plaque-forming units (PFU), counted by plaque assay as previously described, and stored at −80 °C until used. To perform the anti-HSV-1 screening, the viral plaque number reduction assay was used as described previously by Boff et al.. Briefly, confluent Vero cell monolayers (2.5 × 10^5 cells per well) were infected with approximately 100 PFU of each virus strain for 1 h at 37 °C. Treatments were performed by adding non-cytotoxic concentrations of the compounds after viral infection (post-infection treatment). Cells were then washed with phosphate-buffered saline (PBS) and overlaid with MEM containing 1.5% carboxymethylcellulose (CMC; Sigma-Aldrich) in the presence or absence of different concentrations of the compounds and incubated for 48 h. Cells were fixed and stained with naphthol blue-black (Sigma-Aldrich), and viral plaques were counted by using a stereomicroscope. […] The ratio between CC50 and IC50 values was calculated to obtain the selectivity index (SI) of each sample. […]

HSV-1 (29R strain) = assay: Viral plaque number reduction assay, HSV-1 29R strain; assay type: cell-based, Herpes Simplex Virus type 1; conditions: selective index = CC50 (Vero)/IC50
Experimental: as §1

Structure (SMILES)	SI (KOS Strain) (HSV-1 (KOS strain))	SI (29R Strain) (HSV-1 (29R strain))
COC(=O)[C@@]12C(C)=CCC[C@@H]1[C@@](C)(CCc1ccoc1)[C@@H](C)C[C@H]2O [Compound 4, kerlinic acid methyl ester]	1.87	–
C=C1C(C)=CCC[C@@H]1[C@@](C)(CCc1ccoc1)[C@@H](C)CC(=O)OC [Compound 2, raspadiene]	> 3.0 and >3.07	> 3.0 and >3.33

Where “and” joins values, the source holds several entries; their conditions need not be identical. Identical values can stand only once.
